Reference: paper PMC10384657 (Virus Research, 2023)

Test: general procedure: Fmoc solid-phase peptide synthesis; Tentagel S RAM resin (loading 0.23 mmol/g); DIC/OxymaPure
Settings: whole synthesis, 215 nm

Row | Substance | final HPLC purity [%]
1 | ^898FAMQMAYRF^906 | >95
2 | ^888FGAGAALQAPFAMQMAYRF^906 | >95
3 | ^888FGAGAALQIAFAMQMAYRF^906 | 90
4 | ^888FGAGAALQIPFAMQMAAAF^906 | 93
5 | ^888FGAGAALAIPFAMQMAYRF^906 | >95
6 | ^888FGAGAALQIPFAMQMAARF^906 | 95
7 | ^886WTFGAGAALQIPFAMQMAY^904 | >95
8 | ^888FGAGAALQIPFAMQAAYRF^906 | 93
9 | ^888FGAGAALQIPFAMQMAYRA^906 | >95
10 | ^894LQIPFAMQMAYRF^906 | >95
11 | ^888FGAGAALQIPAAMQMAYRF^906 | >95
12 | ^884SGWTFGAGAALQIPFAM^900 | 90
13 | ^884SGWTFGAGAALQIPFAMQM^902 | >95
14 | ^888FGAGAAAQIPFAMQMAYRF^906 | >95
15 | ^888FGAGAALQIPFAMQM^902 | >95
16 | ^890AGAALQIPFAMQMAYRF^906 | >95
17 | ^888FGAGAALQIPFAMAMAYRF^906 | 95
18 | ^888FGAGAALQIPFAMQMAYRF^906 | 95
19 | ^888AGAGAALQIPFAMQMAYRF^906 | >95
20 | ^888FGAGAALQIPFAAQMAYRF^906 | >95
